In this experiment the target is SARS-CoV-2 delta plus variant RBD (SARS-CoV-2). The experiment is described as follows: ELISA. For orientation: In an ELISA, binding on a coated surface is turned into a signal by an enzyme label.

Data on one substance can be found in patent publication US20240336672A1.

With ETE (antibody), the OD405nm came to 0.4.
